Anti-infective test results gathered from many reports (values: NIAID ChemDB through PubChem).

Shared fields: target-level tests

Rows are shuffled and stem from different studies.

{"compound": "O=C(O)c1cc2nc(-c3cccc(Cl)c3)cc(-c3cccc(OCc4ccccc4)c3)n2n1", "species": "Hepatitis C virus", "measure": "IC50", "target": "RNA-dependent RNA polymerase", "value": "1–10 µM"}
{"compound": "CC(NC(=O)c1ccc2c(c1)nc(-c1ccc3nc(-c4ccccc4)cnc3c1)n2C1CCCCC1)C(=O)O", "tested at": "100 µM", "species": "Hepatitis C virus", "measure": "inhibition", "target": "NS5B polymerase", "value": "98.33%"}
{"compound": "CC(C)Cc1ccc(-c2cc(NS(=O)(=O)c3cc(C#N)ccc3Cl)c(C(=O)O)s2)cc1", "species": "Hepatitis C virus", "measure": "IC50", "target": "NS3 ATPase", "value": ">20 µM"}
{"compound": "O=C(Nc1ccsc1-c1nc(C(=O)O)c(O)c(=O)[nH]1)OCc1cccc2cccc(Br)c12", "species": "Hepatitis C virus", "measure": "IC50", "target": "HCV polymerase", "value": "<25 µM"}
{"compound": "COc1nc(NCCCN2CCOCC2)nc(Nc2ccc3cn[nH]c3c2)n1", "tested at": "0.01 µg/mL", "species": "Hepatitis B virus", "measure": "inhibition", "target": "DNA polymerase", "value": "51%"}
{"compound": "O=C(O)c1cc2nc(-c3cccc(F)c3)c(C3CCCCC3)c(=O)n2[nH]1", "species": "Hepatitis C virus", "measure": "IC50", "target": "RNA-dependent RNA polymerase", "value": "1–10 µM"}
{"compound": "COc1nc(NCCN2CCOCC2)nc(Nc2ccc3[nH]ncc3c2)n1", "tested at": "0.01 µg/mL", "species": "Hepatitis B virus", "measure": "inhibition", "target": "DNA polymerase", "value": "30%"}
{"compound": "COc1cccc(-c2cc(NS(=O)c3ccccc3C)c(C(=O)O)s2)c1", "species": "Hepatitis C virus", "measure": "IC50", "target": "NS3 ATPase", "value": "<5 µM"}
{"compound": "O=C(O)c1nc(-c2ccccc2NS(=O)(=O)c2ccc(Cc3ncc(C(F)(F)F)cc3Cl)cc2)[nH]c(=O)c1O", "species": "Hepatitis C virus", "measure": "IC50", "target": "HCV polymerase", "value": "<100 µM"}
{"compound": "C#Cc1cc(NS(=O)(=O)c2ccccc2C)c(C(=O)O)s1", "species": "Hepatitis C virus", "measure": "IC50", "target": "NS3 ATPase", "value": "5–20 µM"}
{"compound": "O=C(Nc1nn[nH]n1)c1cnn2c(C3CCCCC3)c(-c3ccc(OCc4ccccc4)cc3)cnc12", "species": "Hepatitis C virus", "measure": "IC50", "target": "RNA-dependent RNA polymerase", "value": "1–10 µM"}
{"compound": "CC(C)N(C(=O)C1CC[C@@H](C)C[C@H]1O)c1cc(-c2ccccc2)sc1C(=O)O", "species": "Hepatitis C virus", "measure": "IC50", "target": "NS3 ATPase", "value": "<5 µM"}
{"compound": "COc1nc(NCCCN2CCCC2=O)nc(Nc2ccc3[nH]ncc3c2)n1", "species": "Hepatitis B virus", "measure": "IC50", "target": "DNA polymerase", "value": "0.1–1 µg/mL"}
{"compound": "O=C(Nc1cscc1-c1nc(C(=O)O)c(O)c(=O)[nH]1)NS(=O)(=O)c1ccc(Cl)cc1", "species": "Hepatitis C virus", "measure": "IC50", "target": "HCV polymerase", "value": "<25 µM"}
{"compound": "O=C(O)c1cnn2c(-c3ccc(Oc4ccccc4)cc3)c(-c3ccccc3)cnc12", "species": "Hepatitis C virus", "measure": "IC50", "target": "RNA-dependent RNA polymerase", "value": ">10 µM"}
{"compound": "CNC(=O)c1c(-c2ccc(F)cc2)oc2cc(N(C)S(C)(=O)=O)c(OCc3ncc[nH]3)cc12", "species": "Hepatitis C virus", "measure": "IC50", "target": "Nonstructural protein 5B", "value": "≤0.5 µM"}
{"compound": "CC(=O)c1ccc(-c2cc(NS(=O)(=O)c3ccccc3C)c(C(=O)O)s2)s1", "species": "Hepatitis C virus", "measure": "IC50", "target": "NS3 ATPase", "value": "<5 µM"}
{"compound": "CC(NC(=O)Nc1cccc(-c2nc(C(=O)O)c(O)c(=O)[nH]2)c1)c1cccc2ccccc12", "species": "Hepatitis C virus", "measure": "IC50", "target": "HCV polymerase", "value": "<100 µM"}
{"compound": "COc1nc(NCCO)nc(Nc2ccc3[nH]ncc3c2)n1", "tested at": "1 µg/mL", "species": "Hepatitis B virus", "measure": "inhibition", "target": "DNA polymerase", "value": "55%"}
{"compound": "COc1ccc(-c2ccc(F)cc2)c(-c2ccc3cc(-c4nc5cc(C(=O)O)ccc5n4C4CCCCC4)ccc3n2)c1", "tested at": "100 µM", "species": "Hepatitis C virus", "measure": "inhibition", "target": "NS5B polymerase", "value": "99.79%"}
{"compound": "COc1nc(NCCc2ccccn2)nc(Nc2ccc3cn[nH]c3c2)n1", "tested at": "0.1 µg/mL", "species": "Hepatitis C virus", "measure": "inhibition", "target": "Nonstructural protein 5B", "value": "0%"}
{"compound": "NC(=O)CNC(=O)c1ccc(-c2ccc(Cl)cc2)c(-c2ccc3cc(-c4nc5cc(C(=O)O)ccc5n4C4CCCCC4)ccc3n2)c1", "tested at": "100 µM", "species": "Hepatitis C virus", "measure": "inhibition", "target": "NS5B polymerase", "value": "98.71%"}
{"compound": "O=C(O)c1cnn2c(-c3ccccc3Cl)cc(-c3ccc(F)cc3)nc12", "species": "Hepatitis C virus", "measure": "IC50", "target": "RNA-dependent RNA polymerase", "value": ">10 µM"}
{"compound": "CNC(=O)c1c(-c2ccc(F)cc2)oc2cc(-c3c(C)noc3C)c(OCC3CC3)cc12", "species": "Hepatitis C virus", "measure": "IC50", "target": "Nonstructural protein 5B", "value": "≤0.5 µM"}
{"compound": "COc1ccc(-c2ccc(Cl)cc2)c(-c2ccc3cc(-c4nc5cc(C(=O)O)ccc5n4Cc4ccccc4)ccc3n2)c1", "tested at": "100 µM", "species": "Hepatitis C virus", "measure": "inhibition", "target": "NS5B polymerase", "value": "101%"}
{"compound": "O=S(=O)(Cc1ccccc1)Nc1cnn2c(C3CCCCC3)c(-c3ccc(OCc4ccccc4)cc3)cnc12", "species": "Hepatitis C virus", "measure": "IC50", "target": "RNA-dependent RNA polymerase", "value": ">10 µM"}
{"compound": "Cc1ccc(C(=O)N(c2cc(-c3ccccc3)sc2C(=O)O)C(C)C)c(C#N)c1", "species": "Hepatitis C virus", "measure": "IC50", "target": "NS3 ATPase", "value": "5–20 µM"}
{"compound": "O=C(Nc1scnc1-c1nc(C(=O)O)c(O)c(=O)[nH]1)c1ccccc1", "species": "Hepatitis C virus", "measure": "IC50", "target": "HCV polymerase", "value": "<100 µM"}
{"compound": "COc1cc(-c2cc(-c3ccc(C(F)(F)F)cc3)nc3cc(C(=O)O)nn23)ccc1Cl", "species": "Hepatitis C virus", "measure": "IC50", "target": "RNA-dependent RNA polymerase", "value": ">10 µM"}
{"compound": "CC[C@H](C)C(NC(=O)c1ccc2c(c1)nc(-c1ccc3nc(-c4ccccc4)cnc3c1)n2C1CCCCC1)C(=O)O", "tested at": "33 µM", "species": "Hepatitis C virus", "measure": "inhibition", "target": "NS5B polymerase", "value": "94.51%"}
{"compound": "Cc1ccc(C(=O)Nc2ccsc2-c2nc(C(=O)O)c(O)c(=O)[nH]2)cc1F", "species": "Hepatitis C virus", "measure": "IC50", "target": "HCV polymerase", "value": "<25 µM"}
{"compound": "COc1cc(OC)cc(-c2ccc3cc(-c4nc5cc(C(=O)O)ccc5n4C4CCCCC4)ccc3n2)c1", "tested at": "33 µM", "species": "Hepatitis C virus", "measure": "inhibition", "target": "NS5B polymerase", "value": "99.76%"}
{"compound": "CNC(=O)c1c(-c2ccc(F)cc2)oc2cc(S(=O)(=O)N3CCCC3)c(OC(C)C)cc12", "species": "Hepatitis C virus", "measure": "IC50", "target": "Nonstructural protein 5B", "value": "≤0.5 µM"}
{"compound": "O=S(=O)(Nc1cnn2c(C3CCCCC3)c(-c3ccc(OCc4ccccc4)cc3)cnc12)c1ccsc1", "species": "Hepatitis C virus", "measure": "IC50", "target": "RNA-dependent RNA polymerase", "value": ">10 µM"}
{"compound": "CCn1c(-c2ccc3nc(-c4cc(OC)ccc4-c4ccc(Cl)cc4)ccc3c2)nc2cc(C(=O)O)ccc21", "tested at": "33 µM", "species": "Hepatitis C virus", "measure": "inhibition", "target": "NS5B polymerase", "value": "90.07%"}
{"compound": "CCCC(=O)N(Cc1ccc(Cl)cc1)c1cc(-c2ccccc2)sc1C(=O)O", "species": "Hepatitis C virus", "measure": "IC50", "target": "NS3 ATPase", "value": "5–20 µM"}
{"compound": "O=C(Nc1cccc(-c2nc(C(=O)O)c(O)c(=O)[nH]2)c1)NC1CCc2ccccc21", "species": "Hepatitis C virus", "measure": "IC50", "target": "HCV polymerase", "value": "<100 µM"}
{"compound": "COc1ccc(-c2cccc(C)c2)c(-c2ccc3cc(-c4nc5cc(C(=O)O)ccc5n4C4CCCCC4)ccc3n2)c1", "tested at": "100 µM", "species": "Hepatitis C virus", "measure": "inhibition", "target": "NS5B polymerase", "value": "101%"}

a–b is a range or a potency band. Inhibition is in % at the dose shown (toxicity tests: loss of growth or viability). ICn is the concentration giving n% inhibition.